Data set [1] concerns Pseudomonas aeruginosa (ATCC 27853). The data set can be described thus: Minimum inhibitory concentration, broth dilution (NCCLS M7-A6), P. aeruginosa. The settings on record: as printed in footnote c. Format: cell-based.
Data set [2] has as its system Staphyloccocus aureus (ATCC 6538). As to the kind of experiment: Minimum inhibitory concentration, broth dilution (NCCLS M7-A6), S. aureus. The settings on record: as printed in footnote d. Format: cell-based, Staphylococcus aureus. As for the experimental part: Antimicrobial activity tests were performed in a quantitative way by determining the minimum inhibitory concentration (MIC) by the standard method for in vitro anti-bacterial susceptibility testing proposed by the National Committee for Clinical Laboratory Standards [NCCLS M7-A6] [56]. Sthaphyloccocus aureus [ATCC6538] and Pseudomonas aeruginosa [ATCC27853] stored in Müller–Hilton broth were sub-cultured for testing in the same medium and incubated for 24 h, respectively, at 37 °C. The bacterial cells of the two strains were suspended in Müller-Hilton broth to produce inocula of 10^8 CFU mL^–1, determined by a spectrophotometric method. Serial dilutions of the compounds, previously dissolved in DMSO, were prepared in 10 test tubes with Müller–Hilton broth to final concentrations from 100 μg mL^–1 to 0.20 μg mL^–1 for P. aeruginosa and S. aureus. An old inoculum of each strain was added to the tubes to obtain final concentrations of 10^5 CFU. […] Tests using tetracycline as positive control and DMSO as negative control were carried out in parallel. All tests were performed in triplicate with full agreement between the results.

Regarding `CC(=O)Oc1ccccc1C(=O)[O][Sb]([O]C(=O)c1ccccc1OC(C)=O)([c]1ccccc1)([c]1ccccc1)[c]1ccccc1` [Complex 1, Bis-(acetylsalicylato)triphenylantimony(V)], the “c SI (selective index): ratio between CC50 in murine macrophages and MIC in Pseudomonas aureginosa” value in data set [1] is reported as below 1. Also, in data set [2], the “d SI (selective index): ratio between MIC in murine macrophages and MIC in Staphylococcus aereus” value is listed as below 1.
For `CC(=O)Oc1ccccc1C(=O)[O][Bi]([O]C(=O)c1ccccc1OC(C)=O)([c]1ccccc1)([c]1ccccc1)[c]1ccccc1` [Complex 3, Bis-(acetylsalicylato)triphenylbismuth(V)], in data set [1], the “c SI (selective index): ratio between CC50 in murine macrophages and MIC in Pseudomonas aureginosa” value is 1.6. Also, the “d SI (selective index): ratio between MIC in murine macrophages and MIC in Staphylococcus aereus” value in data set [2] was below 1.
Regarding `CC(=O)Oc1cccc(C(=O)[O][Bi]([O]C(=O)c2cccc(OC(C)=O)c2)([c]2ccccc2)([c]2ccccc2)[c]2ccccc2)c1` [Complex 4, Bis-(3-acetoxybenzoato)triphenylbismuth(V)], the “c SI (selective index): ratio between CC50 in murine macrophages and MIC in Pseudomonas aureginosa” value in data set [1] amounted to 1.6. Besides, in data set [2], the “d SI (selective index): ratio between MIC in murine macrophages and MIC in Staphylococcus aereus” value is below 1.
On the same counts, the results for `[Cl][Sb]([Cl])([c]1ccccc1)([c]1ccccc1)[c]1ccccc1` [Complex M1, triphenylantimony(V) dichloride] are below 1 and below 1.
Regarding `O=C([O-])[O-].c1cc[c]([Bi+2]([c]2ccccc2)[c]2ccccc2)cc1` [Complex M2, triphenylbismuth carbonate], the “c SI (selective index): ratio between CC50 in murine macrophages and MIC in Pseudomonas aureginosa” value in data set [1] is on record as below 1. For the same molecule, in data set [2], the “d SI (selective index): ratio between MIC in murine macrophages and MIC in Staphylococcus aereus” value is on record as below 1.
“Bis-(3-acetoxybenzoato)triphenylantimony(V) [Complex 2]”: the “c SI (selective index): ratio between CC50 in murine macrophages and MIC in Pseudomonas aureginosa” value in data set [1] is on record as below 1. Further, the “d SI (selective index): ratio between MIC in murine macrophages and MIC in Staphylococcus aereus” value in data set [2] is on record as below 1.

These data come from publication PMC6271143, “Novel Triphenylantimony(V) and Triphenylbismuth(V) Complexes with Benzoic Acid Derivatives: Structural Characterization, in Vitro Antileishmanial and Antibacterial Activities and Cytotoxicity against Macrophages” (Molecules, 2014).
